In test [1] the target is purified human Glu-plasminogen (American Diagnostica, 98% Glu-type plasminogen) (human) (UniProt P00747).
Test [2] shares this target. This is another data set of the same source.

Results on two substances are retold here after US5854049.

The substance “rSK5mut (multiple mutant containing R10A, K36A, R45A, K51A, and K59A)” yielded an amidolytic kinetic parameters of the SK-PAC on S2251: Km (µM), Kcat (S^-1), kcat/Km (µM^-1 S^-1) in test [1] of 0.675 µM^-1 S^-1.

For “rSKΔ14 (fusion protein with MBP linked to the amino terminus of nSK in which the amino terminal 13 amino acids of nSK were deleted)”, in test [1], the amidolytic kinetic parameters of the SK-PAC on S2251: Km (µM), Kcat (S^-1), kcat/Km (µM^-1 S^-1) came out at 0.096 µM^-1 S^-1. In test [2], this substance yielded a lag phase of plasminogen activation (S2251 hydrolysis, absorption at 405 nm, 21° C.) of 250 s.
